According to US20150150968A1, “USE OF CD28-SPECIFIC MONOCLONAL ANTIBODIES FOR PRODUCING A PHARMACEUTICAL COMPOSITION FOR TREATING VIRUS INFECTIONS” (priority 1999, published 2015):

Tests used:
[1] = system: PBMC of an HIV-infected patient; test: CD4/CD8 T cell proportions in stimulated PBMC of an HIV-infected patient; assay type: cell-based, human
Source text: It is further important that IL-2 preferentially stimulates CD8 T lymphocytes for proliferation, whereas by aCD28 in particular the CD4 T cells are addressed. This can be seen from the data of table I: PBMC of an HIV-infected patient were stimulated for three or ten days with IL-2 or aCD28.

[2] = system: PBMC of an HIV-1-infected patient; test: aCD28- and IL-2-induced proliferation with and without HAART; assay type: cell-based, human; conditions: day 3 to day 4, FIG. 10
[3] = system: HIV; conditions: IL-2 together with HAART therapy; Chun et al., Nature Medicine 1999; cited from earlier work

IL-2: T cell growth factor Interleukin-2
% CD4 ([1]; After 10 Days): 27% | % CD8 ([1]; After 10 Days): 73% | % CD4 ([1]; After 3 days): 46% | % CD8 ([1]; After 3 days): 54% | displacement of CD4/CD8 proportion ([1]; stimulated for three or ten days): distinct displacement in favor of CD8 T cells | induced proliferation, IL-2 compared with aCD28 [2]: stronger proliferation than CD28 | influence of HAART on the induced proliferation [2]: not affected by HAART | amount of replication-competent HIV in T lymphocytes at rest [3]: significant reduction
